Experimental data: PubChem BioAssay AID1224833 (University of Georgia, 2016)
Shown is a random part of about 12,000 reagents tested. About 5,600 of all reagents (46%) count as active. 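Active calls cover z-scores past 1 in both directions, so they include lowered as well as raised rotavirus replication.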

- Test: 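Human genes whose knock-down alters rotavirus replication in monkey cells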 (primary screen)
- Cells: monkey MA104 kidney cells
- Knock-down reagent: siRNA pool against human genes, 50 nM
- Timing: 48 h knock-down before infection; read 24 h after infection
- Treatment: infection with rotavirus strain RV3 two days after transfection; infectious dose for this stage not given
- Detection: 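z-score of rotavirus antigen signal per well, from a fluorescent immunoassay, relative to non-targeting control wells on the same plate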
- Reading the numbers: z-score vs non-targeting control: higher = more rotavirus replication than with non-targeting control
- Call rule: In these data the active calls have z-score vs non-targeting control at about -1 or lower, or at about 1 or higher
- Calls: active = z-score beyond 1 either way; inactive = z-score within 1 of zero

| gene | z-score vs non-targeting control | Outcome |
| --- | --- | --- |
| CAPRIN1 | -1.62 | active |
| C16orf90 | 0.898 | inactive |
| GPR132 | -0.788 | inactive |
| ATP13A2 | 2.33 | active |
| XK | -0.574 | inactive |
| PCDHB3 | -1.23 | active |
| C8orf34 | -1.58 | active |
| SPRY2 | 0.378 | inactive |
| CSN2 | -0.891 | inactive |
| BDKRB2 | -1.2 | active |
| DMXL1 | -1.01 | active |
| STAP2 | -0.931 | inactive |
| SLITRK1 | 0.922 | inactive |
| TBC1D23 | 1.54 | active |
| EDARADD | -0.699 | inactive |
| CA8 | -1.04 | active |
| CHAC2 | -1.67 | active |
| PDLIM1 | -1.21 | active |
| METTL17 | 1.17 | active |
| EML2 | -1.6 | active |
| FLACC1 | 1.3 | active |
| GDI1 | 0.632 | inactive |
| ZNF526 | -0.783 | inactive |
| NLGN2 | -1.19 | active |
| APTX | 1.67 | active |
| TMEM258 | 0.994 | inactive |
| PDE3A | 1.51 | active |
| ST8SIA6 | -1.34 | active |
| ANAPC5 | -3.33 | active |
| EIF3F | -1.48 | active |
| PCID2 | -0.606 | inactive |
| SARS2 | -1.8 | active |
| KLRG2 | 0.966 | inactive |
| FAM209A | -0.462 | inactive |
| RPL7A | -0.926 | inactive |
| LEPROTL1 | -2.56 | active |
| MIDN | 1.22 | active |
| PZP | -1.25 | active |
| CCNB1IP1 | -0.289 | inactive |
| CDCA2 | 0.0519 | inactive |
| ARID3A | -1.03 | active |
| BRMS1 | -1.36 | active |
| SYNDIG1 | -0.99 | inactive |
| SYNPR | -0.34 | inactive |
| URGCP | -1.67 | active |
| HSD17B6 | -2.23 | active |
| CFAP36 | 2.4 | active |
| SCFD2 | -1.45 | active |
| MBOAT1 | -1.29 | active |
| YKT6 | -0.18 | inactive |
| XPR1 | 1.63 | active |
| STRN4 | 0.572 | inactive |
| OSMR | 0.782 | inactive |
| LGI3 | 1.25 | active |
| ING2 | -1.59 | active |
| MAGED2 | 0.147 | inactive |
| PVR | -1.82 | active |
| PFDN4 | -0.559 | inactive |
| PGR | -2.08 | active |
| DPH7 | 3.11 | active |
| BPY2 | -0.391 | inactive |
| KRTAP4-4 | 0.502 | inactive |
| SP7 | -0.805 | inactive |
| KLC2 | 0.213 | inactive |
| ASNSD1 | -2.26 | active |
| CDH13 | -1.77 | active |
| SURF1 | -0.599 | inactive |
| LMOD1 | 0.107 | inactive |
| GSDMA | -1.89 | active |
| ICAM3 | -1.96 | active |
| ZWILCH | -0.742 | inactive |
| NEFM | 1.22 | active |
| SEPTIN14 | 1.7 | active |
| DHX34 | -1.95 | active |
| RMND5A | -2.18 | active |

13 consecutive records already listed, quoted:
| gene | z-score vs non-targeting control | Outcome |
| --- | --- | --- |
| LEPROTL1 | -2.56 | active |
| MIDN | 1.22 | active |
| PZP | -1.25 | active |
| CCNB1IP1 | -0.289 | inactive |
| CDCA2 | 0.0519 | inactive |
| ARID3A | -1.03 | active |
| BRMS1 | -1.36 | active |
| SYNDIG1 | -0.99 | inactive |
| SYNPR | -0.34 | inactive |
| URGCP | -1.67 | active |
| HSD17B6 | -2.23 | active |
| CFAP36 | 2.4 | active |
| SCFD2 | -1.45 | active |
